This note sets out measurements from patent US6548476B1, “Dimeric inhibitors of influenza neuraminidase” (priority 1999, dated 2003).

Each structure is given as a SMILES string.

This assay concerns influenza A virus. Briefly: Inhibition of influenza A virus replication (cytopathic effect) in MDCK cells. The settings on record: comparison of the Table 2 results with monomer (7) or compound (A). On the technique in general: Damage to the host cells serves as the signal in cytopathic effect assays.

`CC(=O)N[C@H]1[C@H]([C@H](OC(=O)NCCCCCCNC(=O)NCCCCCCCCCCCCNC(=O)NCCCCCCNC(=O)O[C@@H]([C@@H]2OC(C(=O)O)=C[C@H](NC(=N)N)[C@H]2NC(C)=O)[C@H](O)CO)[C@H](O)CO)OC(C(=O)O)=C[C@@H]1NC(=N)N` [(3), Bis-[7-(6′-hexyleneureodo)-carbamoyloxy-5-acetamido-4-guanidino-2,3,4,5-tetradeoxy-D-glycero-D-galacto-non-2-enopyranosonic acid]]: the “activity against influenza compared with reference compounds (in words)” value is listed as “more active against influenza than the monomeric ligand molecule (7)”.

Turning to `CC(=O)N[C@H]1[C@H]([C@H](OC(=O)NCCCCCCNC(=O)CNC(=O)CNC(=O)CNC(=O)NCCCCCCNC(=O)NCC(=O)NCC(=O)NCC(=O)NCCCCCCNC(=O)O[C@@H]([C@@H]2OC(C(=O)O)=C[C@H](NC(=N)N)[C@H]2NC(C)=O)[C@H](O)CO)[C@H](O)CO)OC(C(=O)O)=C[C@@H]1NC(=N)N` [(4)], the “activity against influenza compared with reference compounds (in words)” value is “more active against influenza than the monomeric ligand molecule (7)”.
